Results deposited as PubChem BioAssay AID1259414 (Drosophila RNAi Screening Center, 2018).

- Test: 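Fly genes that alter Wolbachia amount inside host cells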 (primary screen)
- Cell system: Drosophila JW18 cells infected with Wolbachia
- Knock-down reagent: long dsRNA against Drosophila genes, 0.25 µg dsRNA per well of a 384-well plate
- Duration: 5 days
- Challenge: cells persistently infected with Wolbachia before knock-down; no added drug
- Measurement: 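Automated imaging of bacterial rRNA staining divided by host cell count, reported as plate-normalised robust z-score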
- Scale: Wolbachia per cell robust z: higher = more Wolbachia per host cell than the plate typical
- Call rule: 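Active if absolute robust z reaches 1.5 in two or more of three replicates, leaving out multi- or no-target dsRNAs, genes unexpressed in JW18 and A1 wells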
The deposit covers about 24,000 reagents; shown is a random part of those that have a named target and a result. Over the whole deposit, about 1,210 (5%) got an active call. 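Inactive calls also include excluded dsRNAs with several or no targets, genes unexpressed in JW18, and well A1, regardless of score.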

Silencing of CG18418 [DRSC08535] resulted in: Wolbachia per cell robust z, rep 1 = -3.34; Wolbachia per cell robust z, rep 2 = 1.38; Wolbachia per cell robust z, rep 3 = -0.276; inactive.
After knock-down of CG18418 [DRSC25732], the screen gave Wolbachia per cell robust z, rep 1 = -1.68; Wolbachia per cell robust z, rep 2 = 1.53; Wolbachia per cell robust z, rep 3 = -0.536; inactive.
With knock-down of Doc3 (Dorsocross3) [DRSC10480] the results were Wolbachia per cell robust z, rep 1 = -0.0958; Wolbachia per cell robust z, rep 2 = -0.776; Wolbachia per cell robust z, rep 3 = 0.409; inactive.
Doc3 (Dorsocross3) [DRSC28205] scored Wolbachia per cell robust z, rep 1 = 0.865; Wolbachia per cell robust z, rep 2 = 0.413; Wolbachia per cell robust z, rep 3 = -0.00697; inactive.
SP2353 [DRSC07545] gave Wolbachia per cell robust z, rep 1 = 0.287; Wolbachia per cell robust z, rep 2 = -0.459; Wolbachia per cell robust z, rep 3 = -0.63; inactive.
Knock-down of SP2353 [DRSC23895] came out at: Wolbachia per cell robust z, rep 1 = 0.722; Wolbachia per cell robust z, rep 2 = 0.594; Wolbachia per cell robust z, rep 3 = 0.821; inactive.
With knock-down of CG18265 [DRSC10310], the screen gave Wolbachia per cell robust z, rep 1 = -0.37; Wolbachia per cell robust z, rep 2 = 1.04; Wolbachia per cell robust z, rep 3 = -0.853; inactive.
For CG5194 [DRSC10492], the entry reads Wolbachia per cell robust z, rep 1 = 0.212; Wolbachia per cell robust z, rep 2 = -0.99; Wolbachia per cell robust z, rep 3 = -0.261; inactive.
CG31806 [DRSC02787] gave Wolbachia per cell robust z, rep 1 = -0.123; Wolbachia per cell robust z, rep 2 = -3.32; Wolbachia per cell robust z, rep 3 = -0.797; inactive.
For CG31806 [DRSC29784], the values are Wolbachia per cell robust z, rep 1 = 0.0579; Wolbachia per cell robust z, rep 2 = 0.473; Wolbachia per cell robust z, rep 3 = 0.959; inactive.

Quoted from above, 3 entries:
SP2353 [DRSC07545] — Wolbachia per cell robust z, rep 1: 0.287; Wolbachia per cell robust z, rep 2: -0.459; Wolbachia per cell robust z, rep 3: -0.63; call: inactive
SP2353 [DRSC23895] — Wolbachia per cell robust z, rep 1: 0.722; Wolbachia per cell robust z, rep 2: 0.594; Wolbachia per cell robust z, rep 3: 0.821; call: inactive
CG18265 [DRSC10310] — Wolbachia per cell robust z, rep 1: -0.37; Wolbachia per cell robust z, rep 2: 1.04; Wolbachia per cell robust z, rep 3: -0.853; call: inactive

Continued.
After knock-down of BG642167 [DRSC38707] the results were Wolbachia per cell robust z, rep 1 = -0.506; Wolbachia per cell robust z, rep 2 = -1.67; Wolbachia per cell robust z, rep 3 = -0.716; inactive.
After knock-down of Pzl (Piezo-like) [DRSC37758], the screen gave Wolbachia per cell robust z, rep 1 = -0.194; Wolbachia per cell robust z, rep 2 = 1.11; Wolbachia per cell robust z, rep 3 = -0.846; inactive.
Against Pzl (Piezo-like) [DRSC37762], the values are Wolbachia per cell robust z, rep 1 = -0.85; Wolbachia per cell robust z, rep 2 = -0.936; Wolbachia per cell robust z, rep 3 = -1.34; inactive.
Knock-down of Pzl (Piezo-like) [DRSC37861] came out at: Wolbachia per cell robust z, rep 1 = -0.145; Wolbachia per cell robust z, rep 2 = -1.52; Wolbachia per cell robust z, rep 3 = -0.885; inactive.
After knock-down of Pzl (Piezo-like) [DRSC38724], the screen gave Wolbachia per cell robust z, rep 1 = 0.966; Wolbachia per cell robust z, rep 2 = -2.03; Wolbachia per cell robust z, rep 3 = 0.133; inactive.
After knock-down of Pzl (Piezo-like) [DRSC41409], the screen gave Wolbachia per cell robust z, rep 1 = -2.9; Wolbachia per cell robust z, rep 2 = 0.00901; Wolbachia per cell robust z, rep 3 = -2.56; inactive.
Against Naa15-16 (N(alpha)-acetyltransferase 15/16) [DRSC19440], the values are Wolbachia per cell robust z, rep 1 = 0.619; Wolbachia per cell robust z, rep 2 = 1.09; Wolbachia per cell robust z, rep 3 = 0.899; inactive.
Depletion of Naa15-16 (N(alpha)-acetyltransferase 15/16) [DRSC22846] gave: Wolbachia per cell robust z, rep 1 = -4.37; Wolbachia per cell robust z, rep 2 = -0.44; Wolbachia per cell robust z, rep 3 = -0.0212; inactive.
Silencing of CG15042 [DRSC19618] gave: Wolbachia per cell robust z, rep 1 = -2.4; Wolbachia per cell robust z, rep 2 = -0.3; Wolbachia per cell robust z, rep 3 = -1.41; inactive.
With knock-down of He (Hemese) [DRSC28434] the results were Wolbachia per cell robust z, rep 1 = -2.1; Wolbachia per cell robust z, rep 2 = -3.67; Wolbachia per cell robust z, rep 3 = -0.766; inactive.
Against Pis (Phosphatidylinositol synthase) [DRSC20178], the entry reads Wolbachia per cell robust z, rep 1 = -2.96; Wolbachia per cell robust z, rep 2 = -0.914; Wolbachia per cell robust z, rep 3 = 0.702; inactive.
Pis (Phosphatidylinositol synthase) [DRSC29976] showed Wolbachia per cell robust z, rep 1 = 0.283; Wolbachia per cell robust z, rep 2 = 0.873; Wolbachia per cell robust z, rep 3 = 0.00205; inactive.
Depletion of CG34278 [DRSC38818] resulted in: Wolbachia per cell robust z, rep 1 = -0.823; Wolbachia per cell robust z, rep 2 = 0.448; Wolbachia per cell robust z, rep 3 = -0.0396; inactive.
With knock-down of CG9416 [DRSC07339], the screen gave Wolbachia per cell robust z, rep 1 = 1.01; Wolbachia per cell robust z, rep 2 = -0.237; Wolbachia per cell robust z, rep 3 = 0.126; inactive.
